Test results from PMC3766598 (BioMed Research International, 2013).

Test system: Rhombeobin (LMR-47)
Details: optimal pH and temperature (standard assay 10 mM Tris-HCl pH 8.0, 10 mM CaCl2, 100 mM NaCl, 37°C); 0.0095-10 mM substrate

## N=C(N)NCCC[C@H](NC(=O)c1ccccc1)C(=O)Nc1ccc([N+](=O)[O-])cc1 [BApNA, N-benzoyl-L-arginine ρ-nitroanilide]
  Km: 800 µM
